For this assay, the system named is rat hepatic microsomal PTPases. The assay can be described thus: Inhibition of tri-phosphorylated insulin receptor dodecaphosphopeptide dephosphorylation by rat hepatic PTPases (malachite green). The class given is biochemical. The settings on record: rat hepatic microsomal PTPase activity; compound at 50 μM.

The values that follow come from patent US6391897B2, “Biphenyl oxo-acetic acids useful in the treatment of insulin resistance and hyperglycemia” (American Home Products Corporation, priority 1998, dated 2002).

For Phenylarsine oxide, the “% Change from Control” value is recorded as −57%.
